From patent publication US7078403B1, “Antiviral agents” (Biota Scientific Management Pty Ltd., priority 1999, dated 2006) come the findings set out here.

SMILES strings stand for the structures. Some results are limits rather than exact numbers.

Holding throughout (conditions): CC50 divided by EC50
The subject of one series is Enterovirus 70. In words: Activity on Enterovirus 70 in mammalian cell culture assay. The series is classed as cell-based.
A further series concerns Coxsackie A21. Kind of series: Activity on Coxsackie A21 in mammalian cell culture assay. The series is classed as cell-based.
For a further series, the system named is Rhinovirus Type 14. The series is classed as cell-based, human rhinovirus.

With `CCO/N=C/c1ccc(OCCC2CCN(c3ccc(Cl)nn3)CC2)cc1` [Compound 1, 4-{2-[1-(6-Chloro-3-pyridazinyl)4-piperidinyl]ethoxy}benzaldehyde O-ethyloxime], in the series with Enterovirus 70, the “Activity on Enterovirus 70 SI” value was >1582. Besides, the “Activity on Coxsackie A21 SI” value in the series on Coxsackie A21 is reported as >320000.
In the case of `CCON=Cc1ccc(OCCC2CCN(c3ccc(Cl)nn3)CC2)c(OC)c1` [Compound 5], the “Activity on Rhinovirus Type 14 SI” value with Rhinovirus Type 14 is >13.
With `CON=Cc1ccc(OCCC2CCN(c3ccc(C)nn3)CC2)cc1` [Compound 7], in the series with Rhinovirus Type 14, the “Activity on Rhinovirus Type 14 SI” value is recorded as >14.
Same read-out and setting: the same measure for `CON=Cc1ccc(OCCC2CCN(c3ccc(Cl)nn3)CC2)cc1` [Compound 8]: >13; for `CCCON=Cc1ccc(OCCC2CCN(c3ccc(Cl)nn3)CC2)cc1` [Compound 11]: >13.
For the compound `C=CCON=Cc1ccc(OCCC2CCN(c3ccc(Cl)nn3)CC2)cc1` [Compound 13], the “Activity on Rhinovirus Type 14 SI” value in the series with Rhinovirus Type 14 is >12.
In the case of `CON=Cc1ccc(OCCC2CCN(c3ccc(Cl)nn3)CC2)c(OC)c1` [Compound 33], the “Activity on Rhinovirus Type 14 SI” value in the series on Rhinovirus Type 14 is recorded as >7.
For the compound `CCON=Cc1ccc(OCCC2CCN(c3ccc(Cl)nn3)CC2)c(C)c1` [Compound 42], in the series with Rhinovirus Type 14, the “Activity on Rhinovirus Type 14 SI” value is on record as >9.
For the compound `CON=Cc1ccc(OCCC2CCN(c3ccc(Cl)nn3)CC2)c(C)c1` [Compound 44], in the series on Rhinovirus Type 14, the “Activity on Rhinovirus Type 14 SI” value is recorded as >5.
Regarding `CCON=Cc1ccc(OCCC2CCN(c3ccc(C)nn3)CC2)c(C)c1` [Compound 51], in the series with Rhinovirus Type 14, the “Activity on Rhinovirus Type 14 SI” value is given as >10.
`CON=Cc1ccc(OCCC2CCN(c3ccc(C)nn3)CC2)c(C)c1` [Compound 52]: the “Activity on Rhinovirus Type 14 SI” value with Rhinovirus Type 14 was >18.
As to `CCON=Cc1ccc(OCCC2CCN(c3ccc(C)nn3)CC2)c(O)c1` [Compound 146], the “Activity on Rhinovirus Type 14 SI” value in the series with Rhinovirus Type 14 is given as >11.
In the case of `CCON=Cc1ccc(OCCC2CCN(c3nnc(C(F)(F)F)s3)CC2)cc1` [Compound 154], in the series on Rhinovirus Type 14, the “Activity on Rhinovirus Type 14 SI” value was >9.
The same measure, in the same setting: the same measure for `CCO/N=C/c1csc(OCCC2CCN(c3ccc(C)nn3)CC2)n1` [Compound 155, 2-(1-(6 methyl-3-pyridazinyl)-4-piperidinylethoxy)-thiazole-4-carboxaldehyde O-ethyl oxime]: >36; for `CCO/N=C/c1ccc(OCCC2CCN(c3nnc(C)s3)CC2)cc1` [Compound 158]: >526.
The same measure, in the same setting: then `CCON=Cc1ccc(OCCC2CCN(c3cnc(Cl)cn3)CC2)cc1` [Compound 160], with >9; and `CCO/N=C/c1ccc(OCCCCCN(C)c2ccc(Cl)nn2)cc1` [Compound 161], with >14; and `CCO/N=C/c1c(C)cc(OCCC2CCN(c3ccc(C)nn3)CC2)cc1C` [Compound 185], with >14.
As for `CO/N=C/c1c(C)cc(OCCC2CCN(c3ccc(C)nn3)CC2)cc1C` [Compound 186], the “Activity on Rhinovirus Type 14 SI” value in the series on Rhinovirus Type 14 is listed as >28.
With `CCO/N=C/c1ccc(OCCC2CCN(c3ccc(C)nn3)CC2)cc1OC` [Compound 187], the “Activity on Rhinovirus Type 14 SI” value in the series on Rhinovirus Type 14 is listed as >97.
For `CCO/N=C/c1ccc(OCCC2CCN(c3ccc(C)nn3)CC2)cc1C` [Compound 188], the “Activity on Rhinovirus Type 14 SI” value with Rhinovirus Type 14 was >311.
For the compound `CO/N=C/c1ccc(OCCC2CCN(c3ccc(C)nn3)CC2)cc1C` [Compound 189], in the series on Rhinovirus Type 14, the “Activity on Rhinovirus Type 14 SI” value is reported as >872.
For the compound `CCON=Cc1cc(C)c(OCCC2CCN(c3ccc(C)nn3)CC2)cc1C` [Compound 190], the “Activity on Rhinovirus Type 14 SI” value with Rhinovirus Type 14 was >16.
`CON=Cc1cc(C)c(OCCC2CCN(c3ccc(C)nn3)CC2)cc1C` [Compound 191]: in the series with Rhinovirus Type 14, the “Activity on Rhinovirus Type 14 SI” value is on record as >39.
Turning to `CCON=Cc1ccc(OCCC2CCN(c3ccc(C)nn3)CC2)c(C)c1C` [Compound 192], the “Activity on Rhinovirus Type 14 SI” value in the series with Rhinovirus Type 14 was >38.
The same measure, in the same setting: then `CON=Cc1ccc(OCCC2CCN(c3ccc(C)nn3)CC2)c(C)c1C` [Compound 193], with >32; and `CCO/N=C/c1ccc(OCCCCN(C)c2ccc(Cl)nn2)cc1` [Compound 195], with >13; and `CCON=Cc1ccc(OCCC2CCN(c3cccc(C)n3)CC2)cc1` [Compound 196], with >23.
For the compound `CO/N=C/c1ccc(OCCC2CCN(c3cncc(Cl)n3)CC2)cc1` [Compound 199], in the series with Rhinovirus Type 14, the “Activity on Rhinovirus Type 14 SI” value is recorded as >2.5.
On the same count and under the same terms, then `CO/N=C/c1ccc(OCCC2CCN(c3nc4ccccc4o3)CC2)cc1` [Compound 200], with >4.8; and `CCO/N=C/c1ccc(OCCC2CCN(c3nc4ccccc4o3)CC2)cc1` [Compound 201], with >3.8.
For `CO/N=C/c1ccc(OCCC2CCN(c3nc(OC)nc(OC)n3)CC2)cc1` [Compound 202], in the series on Rhinovirus Type 14, the “Activity on Rhinovirus Type 14 SI” value was >1.7.
On to `CCO/N=C/c1ccc(OCCC2CCN(c3nc(OC)nc(OC)n3)CC2)cc1` [Compound 203], for which, in the series on Rhinovirus Type 14, the “Activity on Rhinovirus Type 14 SI” value is >1.7.
In the case of `CCc1cnc(N2CCC(CCOc3ccc(/C=N/OC)cc3)CC2)nc1` [Compound 204], in the series on Rhinovirus Type 14, the “Activity on Rhinovirus Type 14 SI” value is on record as >1.8.
Regarding `CCO/N=C/c1ccc(OCCC2CCN(c3ncc(CC)cn3)CC2)cc1` [Compound 205], the “Activity on Rhinovirus Type 14 SI” value in the series on Rhinovirus Type 14 is listed as >1.6.
Consider `CO/N=C/c1ccc(OCCC2CCN(c3nc4ccccc4s3)CC2)cc1` [Compound 206], for which the “Activity on Rhinovirus Type 14 SI” value in the series with Rhinovirus Type 14 is given as >4.3.
The same measure, in the same setting: then `CCO/N=C/c1ccc(OCCCCCOc2ccc(Cl)nn2)cc1` [Compound 209], with >31; and `CCO/N=C/c1ccc(OCCC2CCN(c3cc(C)c(Cl)nn3)CC2)cc1` [Compound 212], with >46.
With `CC(C)S(=O)(=O)n1c(N)nc2ccc(/C(=N/O)c3ccccc3)cc21` [Enviroxime], the “Activity on Enterovirus 70 SI” value in the series with Enterovirus 70 was 19.35. For the same compound, the “Activity on Coxsackie A21 SI” value in the series with Coxsackie A21 was 24.25.
On to `Cc1cc(CCCOc2c(C)cc(-c3noc(C(F)(F)F)n3)cc2C)on1` [Pleconaril, reference compound], for which, in the series on Rhinovirus Type 14, the “Activity on Rhinovirus Type 14 SI” value was >1.6.
